# Where a name gives a salt, the structure may show the parent alone.
# System: Cryptosporidium parvum
# Experiment: Anti-cryptosporidial efficacy assay (44-h infection/qRT-PCR)
# Details: for Pct change of EC50 (vs NC): MDR1(PTX) vs NC host cells; for Hill slope (h): efficacy curve; for Hill slope (h), mean values: mean of h of efficacy and cytotoxicity assays (S6 Table), h used in Fig 11B
SMILES,Pct change of EC50 (vs NC) [%],Hill slope (h) (MDR1(PTX) host cells),Hill slope (h) (NC host cells),Hill slope (h) (WT host cells),"Hill slope (h), mean values"
"COc1cccc2c1C(=O)c1c(O)c3c(c(O)c1C2=O)C[C@@](O)(C(=O)CO)C[C@@H]3O[C@H]1C[C@H](N)[C@H](O)[C@H](C)O1 [Doxorubicin, Doxorubicin HCl]",63.9,1.07,1.14,1.05,1.099
CC(=O)Oc1ccccc1C(=O)Nc1ncc([N+](=O)[O-])s1 [Nitazoxanide],–,–,1.14,1.14,1.116
"O=C1c2c(O)ccc(O)c2C(=O)c2c(NCCNCCO)ccc(NCCNCCO)c21 [Mitoxantrone, Mitoxantrone 2HCl]",103.9,–,1.16,1.12,1.092
CC(=O)O[C@H]1C(=O)[C@@]2(C)[C@H]([C@H](OC(=O)c3ccccc3)[C@]3(O)C[C@H](OC(=O)[C@H](O)[C@@H](NC(=O)c4ccccc4)c4ccccc4)C(C)=C1C3(C)C)[C@]1(OC(C)=O)CO[C@@H]1C[C@@H]2O [Paclitaxel],-3.3,1.04,1.09,1.07,1.059
"CC[C@]1(O)C[C@H]2CN(CCc3c([nH]c4ccccc34)[C@@](C(=O)OC)(c3cc4c(cc3OC)N(C=O)[C@H]3[C@@](O)(C(=O)OC)[C@H](OC(C)=O)[C@]5(CC)C=CCN6CC[C@]43[C@@H]65)C2)C1 [Vincristine, Vincristine sulphate]",75.3,1.02,1.01,1.00,1.030

# — article PMC10079235 (PLOS Neglected Tropical Diseases, 2023)
